Values quoted from earlier work in PMC6359527, “Aptamer Efficacies for In Vitro and In Vivo Modulation of αC-Conotoxin PrXA Pharmacology” (2019).

Experiments:
[1] = tested on: adult muscle nAChR; details: read-out: IC50, adult muscle nAChR; previously reported; cited from earlier work
[2] = tested on: fetal muscle nAChR; details: read-out: IC50, fetal muscle nAChR; previously reported; cited from earlier work
[3] = tested on: mouse muscle contraction; details: read-out: IC50 of inhibition of mouse muscle contraction; reported dose-dependence; cited from earlier work

CC[C@H](C)[C@H](NC(=O)CNC(=O)[C@H](Cc1ccc(O)cc1)NC(=O)[C@@H](N)[C@@H](C)O)C(=O)N[C@@H](Cc1ccc(O)cc1)C(=O)N[C@@H](CC(=O)O)C(=O)N[C@@H](C)C(=O)N[C@@H](CCCCN)C(=O)N1CCC[C@H]1C(=O)N1C[C@H](O)C[C@H]1C(=O)N[C@@H](Cc1ccccc1)C(=O)N[C@@H](CO)C(=O)N[C@H]1CSSC[C@@H](C(=O)N[C@H](C(=O)N[C@@H](CC(C)C)C(=O)N2CCC[C@H]2C(=O)N2C[C@H](O)C[C@H]2C(=O)N[C@@H](CC(N)=O)C(=O)N[C@@H](CC(C)C)C(=O)N[C@@H](CCCNC(=N)N)C(=O)N2CCC[C@H]2C(=O)N[C@@H](CCCCN)C(=O)N[C@@H](Cc2ccccc2)C(=O)N[C@@H](CCCCN)C(=O)N[C@@H](CCC(=O)O)C(N)=O)C(C)C)NC(=O)CNC(=O)CNC(=O)[C@H](CCCNC(=N)N)NC(=O)[C@H](CC(C)C)NC(=O)CNC(=O)[C@H](C)NC1=O
IC50 [1]: 1.8 nM | IC50 [2]: 3 nM | IC50 [3]: 23 nM
